Pooled drug test results. Numbers come from NIAID ChemDB, via PubChem.

Shared fields: tests in culture; organism: Hepatitis C virus; endpoint: inhibition

Percent inhibition refers to the dose given; in toxicity tests it is the harm to the cells.

compound	method	strain or isolate	cell line	dose	value
Nc1ncnc2c1ncn2[C@@H]1O[C@H](CO)[C@@H](O)[C@H]1O	replicon	-	Huh7	50 µM	85.8%
Cc1cc(N2CCCCC2)nc2ccc(Cc3ccc4nc(N5CCCCC5)cc(C)c4c3)cc12	PCR	sg1b	Huh7-1	50 µM	<75%
O=c1cc(-c2ccc(O)cc2)oc2cc(O)cc(O)c12	PCR	G1	Huh7	0.1 µM	40%
CCCCCCCCCCCCCCCc1cccc(O)c1C(=O)O	luciferase	JFH-1 (gt 2a)	Huh7	7.5 µM	70%
CC(=O)OC1CCC2(C)C(CCC3C2CC(=O)C2(C)C3CC(N3CC3)C2C(C)=O)C1	PCR	sg2a (JFH)	Huh7-1	50 µM	<75%
COc1ccc2c(O[C@@H]3C[C@H]4C(=O)N[C@]5(C(=O)NS(=O)(=O)C6CC6)C[C@H]5/C=C\CCCCN(C)C(=O)[C@@H]4C3)cc(-c3nc(C(C)C)cs3)nc2c1C	luciferase / replicon	1b	Huh7	0.003 µM	42.91%
O=c1ccn([C@H]2C[C@H](O)[C@@H](CO)O2)c(=O)[nH]1	replicon	-	Huh7	50 µM	90.3%
Cc1cc(N2CCOCC2)nc2ccc(Cc3ccc4nc(N5CCOCC5)cc(C)c4c3)cc12	PCR	sg1a (H77)	Huh7-1	50 µM	<75%
C[C@@]1(O)[C@H](O)[C@@H](CO)O[C@H]1n1ccc2c(N)ncnc21	MTT	-	HeLa-5B	10 µg/mL	11.56%
Clc1ccc(Cn2c(CN3CCCC3)nc3ccccc32)cc1	luciferase / replicon	1b Con1	Huh7	12.5 µM	71.91%
O=c1c(O)c(-c2ccc(O)c(O)c2)oc2cc(O)cc(O)c12	PCR	G1	Huh7	0.5 µM	52%
CC(=N/O)/C(C)=N/O	PCR	sg1a (H77)	Huh7-1	50 µM	<75%
C[C@@]1(O)[C@H](O)[C@@H](CO)O[C@H]1c1coc2c(N)ncnc12	MTT	-	Hep3B-T5B	2 µg/mL	0.13%
CO[C@H]1[C@@H](O)[C@@H](C)O[C@H](O[C@H]2[C@H](Oc3cccc4c(O)c5c(=O)oc6ccc(C)c7c(=O)oc(c34)c5c67)O[C@H](C)[C@H](O)[C@@H]2O)[C@@H]1O	PCR	sg2a (JFH)	Huh7-1	50 µM	<75%
Nc1ccn([C@H]2C[C@H](O)[C@@H](CO)O2)c(=O)n1	replicon	-	Huh7	50 µM	0%

Repeating the first 2 entries:

compound | method | strain or isolate | cell line | dose | value
Nc1ncnc2c1ncn2[C@@H]1O[C@H](CO)[C@@H](O)[C@H]1O | replicon | - | Huh7 | 50 µM | 85.8%
Cc1cc(N2CCCCC2)nc2ccc(Cc3ccc4nc(N5CCCCC5)cc(C)c4c3)cc12 | PCR | sg1b | Huh7-1 | 50 µM | <75%

Blank or dashed fields: not listed here. Rows are shuffled and stem from different studies.